Measurements reported in PubChem BioAssay AID504761 (Drosophila RNAi Screening Center, 2011).

Test: 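Insect host genes that dengue virus relies on to spread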 (primary screen)
Cell system: D.Mel-2 cells from Drosophila
Reagents: long dsRNA against Drosophila genes
Challenge: infection with dengue virus type 2; dose and infection time not stated
Measured: 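Per well on two replicate plates, imaging gave the percent of cells positive for viral envelope protein, ranked by infection, and a nuclear count of cells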
Direction: infection score: higher = more virus-infected cells; cell count: higher = more cells in the well
Active means: 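Low infection ranks in the two replicates (chance level up to 0.065) followed by a retest with a 1.5-fold or larger significant decrease, p below 0.05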
Calls: active = confirmed: knock-down lowers infection; inactive = not picked or not confirmed
The screen tested about 22,000 reagents; this is a random part of those that have a named target and a result. Over the whole deposit, 116 (0.52%) were called active. 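Calls depend on retest data that are not deposited; infection was ranked per plate without normalising between plates; the unit of the infection score is not given.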 Raw values are not corrected between plates. A plus sign joins genes that one reagent is predicted to hit. The record does not give: the amount of reagent, the time to read-out.

| target gene | amplicon | infection score, replicate 1 | infection score, replicate 2 | cell count, replicate 1 | cell count, replicate 2 | Call |
| --- | --- | --- | --- | --- | --- | --- |
| CG11158 | DRSC19389 | 13.7 | 13.2 | 6089 | 6481 | inactive |
| Gbeta5 (G protein beta subunit 5) | DRSC17754 | 3.38 | 2.44 | 6600 | 6874 | inactive |
| CG42560 + CG42559 | DRSC21873 | 5.22 | 6.48 | 6115 | 6576 | inactive |
| mRpL28 (mitochondrial ribosomal protein L28) | DRSC02724 | 14.2 | 25.9 | 4341 | 4151 | inactive |
| CG2258 | DRSC18222 | 18.9 | 7.82 | 6436 | 6628 | inactive |
| CG2258 | DRSC28795 | 7.83 | – | 2400 | 408 | inactive |
| CG2224 | DRSC15429 | 4.11 | 9.06 | 6156 | 6117 | inactive |
| CG2224 | DRSC24269 | 4.23 | 1.45 | 6128 | 5779 | inactive |
| CG13065 | DRSC09948 | 3.76 | 1.3 | 5639 | 6286 | inactive |
| CG13065 | DRSC28005 | 9.39 | 9.29 | 6370 | 5618 | inactive |
| bnb (bangles and beads) | DRSC20314 | 0.95 | 4.96 | 6708 | 7098 | inactive |
| bnb (bangles and beads) | DRSC27623 | 3.92 | 6.66 | 6551 | 4098 | inactive |
| CG1494 | DRSC20509 | 11.1 | 2.45 | 5127 | 6495 | inactive |
| CG10324 | DRSC14230 | 3.83 | 6.23 | 5456 | 5204 | inactive |
| CG10911 | DRSC06008 | 7.66 | 8.69 | 6396 | 6883 | inactive |
| Sgs7 (Salivary gland secretion 7) | DRSC11281 | 1.59 | 3.09 | 5736 | 6406 | inactive |
| CG3860 | DRSC04425 | 17.4 | – | 6361 | – | inactive |
| CG16790 | DRSC15156 | 9.78 | 14.1 | 6276 | 6065 | inactive |
| 128up (upstream of RpIII128) | DRSC05027 | 8.47 | 9.24 | 5428 | 5878 | inactive |
| 128up (upstream of RpIII128) | DRSC24366 | 9.55 | 12.5 | 5139 | 4617 | inactive |
| CG3732 | DRSC04410 | 10.3 | 21.9 | 6616 | 4920 | inactive |
| CG3732 | DRSC25057 | 7.67 | 2.25 | 6521 | 6141 | inactive |
| jtb (jetboil) | DRSC06868 | 32.5 | 26.7 | 3733 | 2913 | inactive |
| CG11379 | DRSC18629 | 7.1 | 0.82 | 5856 | 6983 | inactive |
| CG34214 | DRSC04490 | 25.6 | 6.7 | 5957 | 6717 | inactive |
| Or19b + Or19a | DRSC22604 | 6.64 | 3.89 | 6309 | 6228 | inactive |
| Rph (Rabphilin) | DRSC17790 | 2.41 | 3.3 | 6277 | 6278 | inactive |
| Rph (Rabphilin) | DRSC23887 | 1 | 1.17 | 5881 | 5653 | inactive |
| ETH (Ecdysis triggering hormone) | DRSC04612 | 4.56 | 18.1 | 6405 | 5929 | inactive |
| Task7 (TWIK-related acid-sensitive K[+] channel 7) | DRSC16477 | 3.75 | 1.64 | 6688 | 6972 | inactive |
| Task7 (TWIK-related acid-sensitive K[+] channel 7) | DRSC26662 | 6.26 | 10.5 | 6010 | 5515 | inactive |
| Grik | DRSC15846 | 3.23 | 5.37 | 6402 | 6685 | inactive |
| Grik | DRSC15847 | 2.16 | 7.39 | 6947 | 5659 | inactive |
| Grik | DRSC26067 | 2.36 | 1.24 | 6136 | 6290 | inactive |
| CG7369 | DRSC23501 | 10.1 | 1.74 | 6765 | 6316 | inactive |
| CG14646 | DRSC12232 | 8.59 | 17.2 | 6145 | 6417 | inactive |
| CG14646 | DRSC21316 | 0.53 | 3.44 | 6424 | 6358 | inactive |
| Snm1 | DRSC12130 | 8.49 | 23.9 | 6797 | 6083 | inactive |
| SPARC (Secreted protein, acidic, cysteine-rich) | DRSC14123 | 4.54 | 10.1 | 5509 | 5431 | inactive |
| SPARC (Secreted protein, acidic, cysteine-rich) | DRSC26381 | 1.35 | 1.56 | 5495 | 6013 | inactive |
| CG32643 | DRSC18962 | 1.54 | 0.2 | 6621 | 6541 | inactive |
| CG4872 | DRSC19921 | 3.11 | 1.95 | 5951 | 6502 | inactive |
| CG31913 | DRSC00892 | 0.96 | – | 5734 | – | inactive |
| CG31913 | DRSC27532 | 7.4 | 7.5 | 6770 | 6602 | inactive |
| wapl (wings apart-like) | DRSC18851 | 6.88 | 1.74 | 6060 | 6103 | inactive |
| wapl (wings apart-like) | DRSC27941 | 18.4 | 14.9 | 5237 | 6215 | inactive |
| Neurochondrin | DRSC12580 | 15.8 | 13.2 | 5128 | 5708 | inactive |
| Neurochondrin | DRSC26704 | 3.29 | 6.32 | 6165 | 5804 | inactive |
| ttk (tramtrack) | DRSC14078 | 0.15 | 2.12 | 6674 | 6405 | inactive |
| ttk (tramtrack) | DRSC17091 | 3.27 | 1.07 | 3366 | 3375 | inactive |
| ttk (tramtrack) | DRSC27078 | 5.51 | 5.04 | 5936 | 6463 | inactive |
| RpLP0-like (Ribosomal protein LP0-like) | DRSC06424 | 20.2 | 19.2 | 5981 | 6566 | inactive |
| RpLP0-like (Ribosomal protein LP0-like) | DRSC28206 | 6.77 | – | 1832 | 506 | inactive |
| kl-5 (retired record) | DRSC20707 | 5.95 | 2.32 | 5746 | 6390 | inactive |
| kl-5 (retired record) | DRSC20736 | 3.94 | 2.6 | 6794 | 6050 | inactive |
| kl-5 (retired record) | DRSC20773 | 2.27 | 6.36 | 6342 | 6083 | inactive |
| kl-5 (retired record) | DRSC21161 | 13 | 8.52 | 6277 | 5365 | inactive |
| drk (downstream of receptor kinase) | DRSC07606 | 5.69 | 18.5 | 5996 | 6195 | inactive |
| drk (downstream of receptor kinase) | DRSC27911 | 24.9 | 31.9 | 4700 | 4611 | inactive |

A stretch from the list above, as a working copy:
| target gene | amplicon | infection score, replicate 1 | infection score, replicate 2 | cell count, replicate 1 | cell count, replicate 2 | Call |
| --- | --- | --- | --- | --- | --- | --- |
| Grik | DRSC15846 | 3.23 | 5.37 | 6402 | 6685 | inactive |
| Grik | DRSC15847 | 2.16 | 7.39 | 6947 | 5659 | inactive |
| Grik | DRSC26067 | 2.36 | 1.24 | 6136 | 6290 | inactive |
| CG7369 | DRSC23501 | 10.1 | 1.74 | 6765 | 6316 | inactive |
| CG14646 | DRSC12232 | 8.59 | 17.2 | 6145 | 6417 | inactive |
